Compound potency records, mixed from different reports. Data source: NIAID ChemDB in PubChem.

Shared fields: toxicity to cultured cells; cell line: MT-4; measure: CC50

An empty or dashed field is not shown.

SMILES | method | result
Cc1cn([C@H]2C[C@H](N=[N+]=[N-])[C@@H](CO)O2)c(=O)[nH]c1=O |  | 20 µM
CC(=O)OCCOCn1c(-c2ccccn2)c([N+](=O)[O-])c2ccccc21 |  | >200 µM
Cc1nn(-c2ccccc2)c2nc(NC(C)(C)C)oc12 |  | 18 µM
CC(=O)OCCOCn1c(-c2ccccc2)c([N+](=O)[O-])c2ccccc21 |  | >200 µM
CCO/N=C1\C(=O)N(CCOCCN2C(=O)/C(=N/OCC)c3cc(Cl)ccc32)c2ccc(Cl)cc21 | MTT | 43.85 µM
Nc1c(-c2ccccc2)n(COCCO)c2ccccc12 |  | 105 µM
COc1ccc2nc3cc(Cl)ccc3c(NCCC[C@@H]3CCCN4CCCC[C@H]34)c2c1 | MTT | 1.3 µM
CCc1c(Sc2cccc3ccccc23)nc(SCC(=O)c2ccc(F)cc2F)[nH]c1=O | MTT | 41.03 µM
Cc1cn(/C=C/[C@H](O)[C@H](O)CO)c(=O)[nH]c1=O |  | 500 µM
O=[N+]([O-])c1c(-c2ccccc2)n(COCCO)c2ccccc12 |  | 154 µM
O=S1(=O)NC(Cc2ccc3ccccc3c2)=CC(=NCCc2ccccc2)N1 | MTT | 141 µM
CC(C)(C)OC(=O)N1CCCN(C(=O)OC(C)(C)C)CCN(C(=O)OC(C)(C)C)CCCN(C(=O)CCCC(=O)OC[C@@H]2CC[C@H](n3ccc(N)nc3=O)O2)CC1 |  | 50 µM
O=S1(=O)N=C(Nc2ccc(Br)cc2)C=C(Cc2ccccc2)N1 | MTT | 163 µM
CCc1c(CC2CCCCC2)nc(SCC(=O)c2ccccc2)[nH]c1=O | MTT | 263 µM
O=S1(=O)N=C(Nc2ccc(Cl)cc2)C=C(Cc2cccc3ccccc23)N1 | MTT | 147 µM
COC(=O)[C@@H](NC(=O)Cc1ccccc1)[C@@H]1N[C@@H](C(=O)NC[C@@H](O)CN2C[C@H]3CCCC[C@H]3C[C@H]2C(=O)NC(C)(C)C)C(C)(C)S1 |  | >100 µM
CCn1nnc2c(C)nn(-c3ccccc3)c21 |  | 145 µM
CC(C)(C)NC(=O)[C@@H]1C[C@@H]2CCCC[C@@H]2CN1CC(O)CNC(=O)[C@@H]1N[C@@H]([C@H](NC(=O)Cc2ccccc2)C(=O)NCCNC(=O)OC(C)(C)C)SC1(C)C |  | >100 µM
CNc1nc2c(o1)c(C)nn2-c1ccccc1 |  | 31 µM
Cc1cn([C@H]2C[C@H](N=[N+]=[N-])[C@@H](CO)O2)c(=O)[nH]c1=O |  | 920 µM
CC(C)(C)OC(=O)N1CCCN(C(=O)OC(C)(C)C)CCN(C(=O)OC(C)(C)C)CCCN(CCCCC(=O)OC[C@@H]2CC[C@H](n3cnc4c(=O)[nH]cnc43)O2)CC1 |  | 50 µM
NS(=O)(=O)c1ccc(NC2=NS(=O)(=O)NC(Cc3ccc4ccccc4c3)=C2)cc1 | MTT | 139 µM
CC(C)(C)OC(=O)N1CCCN(C(=O)OC(C)(C)C)CCN(C(=O)OC(C)(C)C)CCCN(CCCCC(=O)Nc2ccn([C@H]3CS[C@@H](CO)O3)c(=O)n2)CC1 |  | 10 µM
Cc1cn([C@H]2C[C@H](N=[N+]=[N-])[C@@H](CO)O2)c(=O)[nH]c1=O | MTT | >25 µM
CCc1c(Sc2ccccc2)nc(SCC(=O)c2ccc(OC)cc2)[nH]c1=O | MTT | 181 µM
Cc1c(C(C)C2CCCCC2)nc(SCC(=O)c2ccc(O)cc2)[nH]c1=O | MTT | 13 µM
Cc1nn(-c2ccccc2)c2c1nnn2[C@@H]1O[C@H](CO)[C@@H](O)[C@H]1O |  | 145 µM
CC(=O)OCCOCn1cc(C=O)c2ccccc21 |  | >200 µM
Nc1ncnc2c1ncn2CCOCP(=O)(O)O |  | 40 µM
CC(=O)c1ccc(C)cc1NC(C(N)=O)c1c(Cl)cccc1Cl |  | 137 µM
CN(C)c1ccc(CNC(=O)[C@@H](NC(=O)Cc2ccccc2)[C@@H]2N[C@@H](C(=O)NC[C@@H](O)CN3C[C@H]4CCCC[C@H]4C[C@H]3C(=O)NC(C)(C)C)C(C)(C)S2)cc1 |  | >100 µM
Nc1ccn([C@H]2CC[C@@H](CO)O2)c(=O)n1 | MTT | >20 µg/mL
CC(C)(C)NC(=O)[C@@H]1C[C@@H]2CCCC[C@@H]2CN1C[C@H](O)CNC(=O)[C@@H]1N[C@@H]([C@H](NC(=O)Cc2ccccc2)C(N)=O)SC1(C)C |  | >100 µM
CC(C)(C)OC(=O)N1CCCN(C(=O)OC(C)(C)C)CCN(C(=O)OC(C)(C)C)CCCN(C(=O)CCCC(=O)OC[C@H]2O[C@@H](n3ccc(N)nc3=O)CS2)CC1 |  | 100 µM
COc1ccc2nc3cc(Cl)ccc3c(Nc3cccnc3)c2c1 | MTT | 9 µM
CCCCOc1nc(Cc2ccccc2)cc(=O)[nH]1 |  | 290 µM
C/C(=N\NC(N)=S)c1nc2ccc(Cl)cc2[nH]1 | MTT | 1.96 µg/mL
CC(C)Nc1cccnc1N1CCN(C(=O)c2cc3cc(NS(C)(=O)=O)ccc3[nH]2)CC1 | MTT | >44 µM
CO/N=C1\C(=O)N(CCOCCN2C(=O)/C(=N/OC)c3ccccc32)c2ccccc21 | MTT | >11.97 µM
CCOC(=O)CNC(=O)n1nnc2c(C)nn(-c3ccccc3)c21 |  | 122 µM
COc1ccc2nc3cc(Cl)ccc3c(N3CCC(O)CC3)c2c1 | MTT | 6.2 µM
COc1ccc(CN=C2C=C(Cc3ccc4ccccc4c3)NS(=O)(=O)N2)cc1 | MTT | 148 µM
CCn1nnc2c(C)nn(C)c21 |  | >200 µM
COc1ccc2nc3cc(Cl)ccc3c(NC3CN4CCC3CC4)c2c1 | MTT | 1.9 µM
CCc1c(Sc2cccc3ccccc23)nc(SCC(=O)c2ccc(F)cc2)[nH]c1=O | MTT | 26.04 µM
Nc1nc(N)c2ncn([C@H]3CC[C@@H](CO)O3)c2n1 |  | >500 µM
Cc1c(C(C)CC2CCCCC2)nc(SCC(=O)c2ccccc2)[nH]c1=O | MTT | 179 µM
Cc1cn([C@H]2C[C@H](N=[N+]=[N-])[C@@H](CO)O2)c(=O)[nH]c1=O | MTT | 43.26 µM
O=c1cc(Cc2ccccc2)[nH]c(=O)[nH]1 |  | >1000 µM
CC(C)(C)NC(=O)[C@@H]1C[C@@H]2CCCC[C@@H]2CN1CC(O)CNC(=O)[C@@H]1N[C@@H]([C@H](NC(=O)Cc2ccccc2)C(=O)NCCNC(=O)CCCC[C@@H]2SC[C@@H]3NC(=O)N[C@@H]32)SC1(C)C |  | >100 µM
Cc1cc(NC2=NS(=O)(=O)NC(Cc3ccccc3)=C2)ccc1Cl | MTT | 179 µM
CCCCCOc1nc(Cc2ccccc2)c(C)c(=O)[nH]1 |  | 195 µM
O=[N+]([O-])c1c(-c2ccccn2)n(COCCO)c2ccccc12 |  | >200 µM
COc1ccc(CCN=C2C=C(Cc3ccc4ccccc4c3)NS(=O)(=O)N2)cc1 | MTT | 159 µM

7 of the rows above, restated:

SMILES,method,result
CC(C)(C)OC(=O)N1CCCN(C(=O)OC(C)(C)C)CCN(C(=O)OC(C)(C)C)CCCN(C(=O)CCCC(=O)OC[C@H]2O[C@@H](n3ccc(N)nc3=O)CS2)CC1,,100 µM
Cc1c(C(C)CC2CCCCC2)nc(SCC(=O)c2ccccc2)[nH]c1=O,MTT,179 µM
CCc1c(Sc2cccc3ccccc23)nc(SCC(=O)c2ccc(F)cc2)[nH]c1=O,MTT,26.04 µM
O=S1(=O)N=C(Nc2ccc(Br)cc2)C=C(Cc2ccccc2)N1,MTT,163 µM
CO/N=C1\C(=O)N(CCOCCN2C(=O)/C(=N/OC)c3ccccc32)c2ccccc21,MTT,>11.97 µM
Nc1ccn([C@H]2CC[C@@H](CO)O2)c(=O)n1,MTT,>20 µg/mL
O=S1(=O)N=C(Nc2ccc(Cl)cc2)C=C(Cc2cccc3ccccc23)N1,MTT,147 µM

Rows are shuffled and stem from different studies. CCn is the concentration with n% toxicity to the cells.